Test results as given in the supplement of paper PMC9931576.
Human monoclonal antibodies against the spike receptor-binding domain (heavy:light variable regions). IC50 against pseudoviruses bearing the spike of naturally observed variants; lower = stronger; >10 µg/ml means not reached at the top dose. No active / inactive call. The stated detection limit is 0.0005 µg/ml; values near or below 0.001 µg/ml lie at the floor of the assay.

B1: BD58-0503 (protein)
chain 1: EVQLVESGGGLVQPGGSLRLSCAASGFTFSSYSMNWVRQAPGKGLEWVSYISSSSSTIYYADSVKGRFTISRDNAKNSLYLQMNSLRDDDTAVYYCARVGPRHPLYYYDTLRQPFDYWGQGTLVTVSS
chain 2: DIQMTQSPSSLSASVGDRVTITCQASQDISIFLNWYQQKPGRAPKLLIYDASNLETGVPSRFSGSGSGTDFTFTISSLQPEDMAIYYCQQYDTLYTFGQGTKLEIK
B2: BD58-0499 (protein)
chain 1: QVQLQESGPGLVKPSETLSLTCTVSGGSVISDGYHWSWVRQAPGKGLEWIGYIYYSGSTKYNPSLKSRVTISVDTSRNQFSLKLSSVTAADTAVYYCARDRGPYSSGWYAGEFEYWGQGTLVTVSS
chain 2: EIVLTQSPATLSLSPGERATLSCRASQSVSSYLAWYQQKPGQAPRLLIYDASNRATGIPARFSGSGSGTDFTLTISSLEPEDFAVYYCQQRSNWLITFGPGTKVDIK
B3: BD58-0495 (protein)
chain 1: EMQLVESGGGLVQPGRSLRLSCAASGFTFDDFAVHWVRQAPGKGLEWVSGISWNSGDLGYADSVKGRVTISRDNAKKSLYLQMNSLRAEDTALYYCAKGMTGDLEFDAFDIWGQGTMVTVSS
chain 2: DIQMTQSPSSLSASVGDRVTFTCRASQNIANYLNWYQQKPGKAPKLLIYAASILQSGVPPRFSGSGSGTDFTLTISSLQPEDFATYYCQQSFNTLPFGQGTKVEVK
B4: BD58-0485 (protein)
chain 1: QVQLVESGGGVVQPGRSLRLSCAASGFNFSSYAMHWVRQAPGKGLEWVAVISYGGTDKYYPDSVKGRFTISRDNSKNTLYLQMNSLGAEDTAVYYCARAIMVRGAIMELEDLELEDYYYYDMDVWGQGTTVTVSS
chain 2: SYELTQPPSVSVSPGQTASITCSGDRLGDKYASWYHQKPGQSPVLVIYQDNKRPSGIPERFSGSNSGNTATLTISGTQAMDEADYYCQTWDSSTVVFGGGTKVTVL
B5: BD58-0502 (protein)
chain 1: EVQLVESGGGLVQPGGSLRLSCAASEFAFSYFEMNWVRQAPGKGLEWVSYISNTGSTIYYADSVKGRFIISRDNAKNSLYLQMNSLRAEDTAVYYCARDLSYYDSTPLYAFDIWGQGTMVTVSS
chain 2: DIQMTQSPSSLSASVGDRVTITCRASQSISIHLNWYQQKPGRAPKLLIYAASSLQSGVPSRFSGSGSGTDFTLTISSLQPEDFATYYCQQSSRTPPEWTFGQGTKVEMK

Key:
Experiment in all cases: pseudovirus neutralization IC50; higher = weaker neutralization
[1] = biological target: SARS-CoV-2 Omicron BA.1 spike pseudovirus
Protocol: (§1)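 Single-round VSV luciferase pseudovirus mixed with antibody dilutions for 1 h and put on Huh-7 cells for about a day; IC50 from the dose curve.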

[2] = biological target: SARS-CoV-2 Omicron BA.2 spike pseudovirus
Protocol: as §1

[3] = biological target: SARS-CoV-2 Omicron BA.2.75 spike pseudovirus
Protocol: as §1

[4] = biological target: SARS-CoV-2 Omicron BA.2.75.2 spike pseudovirus
Protocol: as §1

[5] = biological target: SARS-CoV-2 Omicron BA.5 spike pseudovirus
Protocol: as §1

[6] = biological target: SARS-CoV-2 Omicron BM.1.1.1 spike pseudovirus
Protocol: as §1

[7] = biological target: SARS-CoV-2 Omicron BQ.1.1 spike pseudovirus
Protocol: as §1

[8] = biological target: SARS-CoV-2 Omicron BR.2 spike pseudovirus
Protocol: as §1

[9] = biological target: SARS-CoV-2 Omicron CA.1 spike pseudovirus
Protocol: as §1

[10] = biological target: SARS-CoV-2 Omicron XBB spike pseudovirus
Protocol: as §1

[11] = biological target: SARS-CoV-2 early D614G spike pseudovirus
Protocol: as §1

Row | Binder | pseudovirus neutralization IC50 [1] [µg/mL] | pseudovirus neutralization IC50 [2] [µg/mL] | pseudovirus neutralization IC50 [3] [µg/mL] | pseudovirus neutralization IC50 [4] [µg/mL] | pseudovirus neutralization IC50 [5] [µg/mL] | pseudovirus neutralization IC50 [6] [µg/mL] | pseudovirus neutralization IC50 [7] [µg/mL] | pseudovirus neutralization IC50 [8] [µg/mL] | pseudovirus neutralization IC50 [9] [µg/mL] | pseudovirus neutralization IC50 [10] [µg/mL] | pseudovirus neutralization IC50 [11] [µg/mL]
1 | B1 | 0.00178 | 0.000967 | 0.511 | > 10 | > 10 | > 10 | > 10 | > 10 | > 10 | > 10 | > 10
2 | B2 | > 10 | 0.00449 | 0.247 | 0.254 | 0.141 | 0.485 | 0.54 | 0.583 | 0.379 | 0.412 | > 10
3 | B3 | 0.169 | 0.102 | > 10 | > 10 | 1.5 | > 10 | > 10 | > 10 | > 10 | > 10 | > 10
4 | B4 | 0.00692 | 0.00358 | 0.00668 | > 10 | > 10 | > 10 | > 10 | > 10 | > 10 | > 10 | > 10
5 | B5 | 0.232 | 0.069 | 0.242 | 0.544 | 0.138 | > 10 | 0.306 | 0.325 | 0.214 | > 10 | > 10
